Anti-infective test results gathered from many reports (values: NIAID ChemDB through PubChem).

Shared fields: tests in culture; organism: Coxsackie virus; cell line: HeLa; method: cytopathic effect; read-out: EC50

ECn is the concentration giving n% inhibition of infection, replication or growth.

{"structure": "CC=NC(=N)c1nc(-c2ccccc2)n(C/C=C/c2ccccc2)n1", "strain or isolate": "TYPE B4", "result": ">10 µg/mL"}
{"structure": "Cc1ccc(CCCCCOc2ccc(-c3noc(C(F)F)n3)c(C)c2)nn1", "result": "0.033–0.659 µg/mL"}
{"structure": "CS(=O)(=O)c1ccc(Oc2ccc(C(=O)c3ccccc3)cc2)nc1", "strain or isolate": "B4", "result": "10 µg/mL"}
{"structure": "NC(=O)CSc1ncnc2c1cnn2COCC(O)CO", "strain or isolate": "TYPE B4", "result": ">400 µg/mL"}
{"structure": "Nc1ccn(CCCC(O)CF)c(=O)n1", "strain or isolate": "TYPE B4", "result": ">400 µg/mL"}
{"structure": "CC=NC(=N)c1nc(-c2ccc(C)cc2)n(Cc2ccccc2)n1", "strain or isolate": "TYPE B4", "result": ">10 µg/mL"}
{"structure": "Nc1ncnc2c1ncn2C(CF)CCCO", "strain or isolate": "TYPE B4", "result": ">400 µg/mL"}
{"structure": "NC(=O)CSc1ncnc2c1cnn2CCCCO", "strain or isolate": "TYPE B4", "result": ">400 µg/mL"}
{"structure": "C=C(N=CC)c1nc(-c2cccc(OC)c2)n(C2O[C@H](CO)[C@@H](O)[C@H](O)[C@H]2O)n1", "strain or isolate": "TYPE B4", "result": ">400 µg/mL"}
{"structure": "Cc1ccc(CCCOc2c(C)cc(-c3noc(C)n3)cc2C)nn1", "result": "0.033–0.659 µg/mL"}
{"structure": "C=C(N=CC)c1nc(-c2ccc(OC)cc2)n([C@@H]2O[C@H](CO)[C@@H](O)[C@H]2O)n1", "strain or isolate": "TYPE B4", "result": ">400 µg/mL"}
{"structure": "COc1ccc(CCCOc2cc(C)c(-c3noc(C(F)(F)F)n3)c(C)c2)nn1", "result": "0.033–0.659 µg/mL"}
{"structure": "CC(C)S(=O)(=O)c1ccc(Oc2ccc(C(=O)c3ccccc3)cc2)nc1", "strain or isolate": "TYPE A21", "result": ">5 µg/mL"}
{"structure": "Cc1nc(-c2cc(C)c(OCCCc3ccc(C(F)F)o3)c(C)c2)no1", "result": "0.033–0.659 µg/mL"}
{"structure": "CCC(Sc1ncnc2c1cnn2CCCCO)C(N)=O", "strain or isolate": "TYPE B4", "result": ">400 µg/mL"}
{"structure": "Cc1nc(-c2cc(C)c(OCCCc3ccc(C=O)o3)c(C)c2)no1", "result": "0.033–0.659 µg/mL"}
{"structure": "Nc1ncnc2c1ncn2CCCC(O)CF", "strain or isolate": "TYPE B4", "result": ">400 µg/mL"}

For reference, 2 entries again:

Cc1ccc(CCCCCOc2ccc(-c3noc(C(F)F)n3)c(C)c2)nn1 ; result: 0.033–0.659 µg/mL
C=C(N=CC)c1nc(-c2cccc(OC)c2)n(C2O[C@H](CO)[C@@H](O)[C@H](O)[C@H]2O)n1 ; strain or isolate: TYPE B4 ; result: >400 µg/mL

Two numbers with a dash give a range or band. Lines come from different laboratories, so protocols vary.